Compound potency records, mixed from different reports. Data source: NIAID ChemDB in PubChem.

All rows: growth or infection tests; species: HIV-1; measure: fold resistance

Fold resistance has wild type as its base.

structure | strain or isolate | changes | cell line | read by | result
CCCc1cc(=O)oc2c3c(c4c(c12)OC(C)(C)C=C4)O[C@@H](C)[C@H](C)[C@@H]3O | UC10-resistant (RT Y181C K101E) | RT-Y181C K101E | CEM + CEM-SS | cytopathic effect / XTT | 8.8
Cc1cn([C@H]2C[C@H](N=[N+]=[N-])[C@@H](CO)O2)c(=O)[nH]c1=O | clinical isolate A036D (RT D67N K70R T215Y) | RT-D67N K70R T215Y | HT4 + HT4-6C | plaque count | 560
Cc1cn([C@H]2C=C[C@@H](CO)O2)c(=O)[nH]c1=O | Site-directed mutant | RT-K65R H221Y | MT-2 | cytopathic effect / XTT | 2.3
Cc1ccnc2c1NC(=O)c1cccnc1N2C1CC1 | RF | RT-V106I Y188C | C8166 | p24 | >3330
O=c1[nH]cnc2c1ncn2[C@H]1CC[C@@H](CO)O1 | HXB2 | RT-M184I | HELA/CD4 + HELA CD4+ | plaque count | 1.2
O=c1[nH]cnc2c1ncn2[C@H]1CC[C@@H](CO)O1 | HIVRTMF (RT L74V Y181C) | RT-L74V Y181C T215Y | HT4 + HT4 LacZ-1 | plaque count | 7.14
CC(C)Oc1ccc(Cc2ccccc2)cc1C(=O)CC(=O)C(=O)O | - | INTG-V151I | - | - | 5
Nc1nc(NC2CC2)c2ncn([C@H]3C=C[C@@H](CO)C3)c2n1 | Recombinant | RT-A62T V118I M184V | HeLa | luciferase | 3
CC(C)(O)c1cccc(CN2C(=O)N(Cc3cccc(C(C)(C)O)c3)[C@H](Cc3ccccc3)[C@H](O)[C@@H](O)[C@H]2Cc2ccccc2)c1 | HXB2 | PR-184V | MT-2/MT-4 + MT-2 | p24 | 3.25
Cc1cc(S(N)(=O)=O)ccc1NC(=O)COc1ccc(Cl)cc1C(=O)c1cc(F)cc(C(F)(F)F)c1 | HXB2 | RT-Y181C | HeLa + HeLa-MAGI | β-galactosidase | 1.5
CCN1c2ncc(CCOc3ccc(C(=O)O)c4ccccc34)cc2C(=O)N(C)c2ccc(Cl)nc21 | - | RT-K103N Y181C | C8166 | p24 | 1
Nc1nc(NC2CC2)c2ncn([C@H]3C=C[C@@H](CO)C3)c2n1 | - | RT-delta67 T69G | MT-2 | p24 | 12
Cc1ccnc2c1NC(=O)c1cccnc1N2C1CC1 | NL4-3 (RT K101E) | RT-K101E | CEM + CEM-SS | cytopathic effect / XTT | 15
Cc1cn([C@H]2C[C@H](N=[N+]=[N-])[C@@H](CO)O2)c(=O)[nH]c1=O | HX88C (RT-W88C) | RT-W88C | HT4LACZ-1 + HT4 LacZ-1 | - | 0.7
C/C=C/CSc1cc(NC(=S)c2ccsc2C)ccc1Cl | NL4-3 (RT Y181C) | RT-Y181C | CEM + CEM-SS | cytopathic effect / XTT | 16
Nc1ccn([C@@H]2CO[C@H](CO)S2)c(=O)n1 | RF | RT-M184V | C8166 | p24 | 18.2
CCc1c(Sc2ccccn2)n(COCc2ccccc2)c(=O)[nH]c1=O | IIIB | RT-Y181C | CEM + CEM-SS | cytopathic effect / XTT | 53
Cc1cn([C@H]2C[C@H](N=[N+]=[N-])[C@@H](CO)O2)c(=O)[nH]c1=O | HXB2 | RT-M184I | HELA/CD4 + HELA CD4+ | plaque count | 0.05
Nc1ccn([C@H]2C=C[C@@H](CO)O2)c(=O)n1 | HXB2 | RT-V75T T215Y | CD4+HELA + HeLa | plaque count | 3.33
Nc1ccn([C@H]2CC[C@@H](CO)O2)c(=O)n1 | HXB2 | Dideoxynucleoside-resistant (RT L74V) | HELA/CD4 + HELA CD4+ | plaque count | 3.8
CC(C)(C)C(=O)c1sc(C(=O)NCCc2ccccc2)c(O)c1O | - | INTG-N155H | - | - | 1
Nc1nc2c(ncn2[C@H]2CO[C@@H](CO)O2)c(=O)[nH]1 | RT-103N 108I | RT-K103N V108I | - | - | 0.1
Nc1ccn([C@H]2CC[C@@H](CO)O2)c(=O)n1 | - | RT-delta67 T69G | MT-2 | p24 | 2.2
Cc1cn([C@H]2C[C@H](N=[N+]=[N-])[C@@H](CO)O2)c(=O)[nH]c1=O | BaL | RT-V106A | Macrophage + Monocytes/macrophages | p24 | 1
CCN1c2ncc(CCOc3ccc(CCC(=O)NN)c4ccccc34)cc2C(=O)N(C)c2cccnc21 | - | RT-K103N Y181C | C8166 | p24 | 1–10
N#Cc1cc2[nH]c3ccccc3c2n(-c2ccc([N+](=O)[O-])cc2)c1=O | Recombinant | RT-M41L A62V S68N G112S V118I M184V | HeLa | luciferase | 34.7
CC(C)(C)NC(=O)[C@@H]1CN(Cc2cccnc2)CCN1C[C@@H](O)C[C@@H](Cc1ccccc1)C(=O)N[C@H]1c2ccccc2C[C@H]1O | Clinical isolate | PR-L10I I15V K20R M36I M46L I54V K55R I62V L63P K70Q V82A L89M | PBMC | p24 | 37.7
Cn1c2ccccc2c2c1cc(C#N)c(=O)n2-c1ccc([N+](=O)[O-])cc1 | Recombinant | RT-M41L A62V S68N G112S V118I M184V | HeLa | luciferase | >1
COC(=O)c1cc2c(c(OC)c1-c1ccc(N(C)C)cc1)OCO2 | 74V | L74V | C8166 | antigen | 0.8
CC(=O)c1ccc(C)cc1NC(C(N)=O)c1c(Cl)cccc1Cl | IIIB | RT-Y181C | MAGI | MTT | >222
C#C[C@]1(CO)O[C@@H](n2cc(C)c(=O)[nH]c2=O)C[C@@H]1O | - | RT-K65R | HeLa | β-galactosidase | 0.679
CCN1c2ncc(CCOc3ccc(C(=O)O)c4ccccc34)cc2C(=O)Nc2c(C)cc(Cl)nc21 | - | RT-K103N Y181C | C8166 | p24 | 1
Cc1cn([C@H]2C[C@H](N=[N+]=[N-])[C@@H](CO)O2)c(=O)[nH]c1=O | Site-directed mutant | RT-K65R Y115F M184V | MT-2 | cytopathic effect / XTT | 1.4
Nc1ccn([C@H]2CC[C@@H](CO)O2)c(=O)n1 | HXB2 | RT-T215Y | CD4+HELA + HeLa | plaque count | 1.43
COc1ccc(S(=O)(=O)N(CC(C)C)C[C@@H](O)[C@H](Cc2ccccc2)NC(=O)O[C@H]2CO[C@H]3OCC[C@H]32)cc1 | Clinical isolate | PR-L10I K43T M46L I54L L63P A71T V82A L90M Q92K | PBMC | p24 | 3
Cc1cn([C@H]2C[C@H](N=[N+]=[N-])[C@@H](CO)O2)c(=O)[nH]c1=O | RTMQ+184V (RT M41L D67N K70R M184V T215Y) | RT-M41L D67N K70R M184V T215Y | HT4LACZ-1 + HT4 LacZ-1 | plaque count | 1.5
COC(=O)N[C@H](C(=O)N[C@@H](Cc1ccccc1)[C@@H](O)CN(Cc1ccc(-c2ccccn2)cc1)NC(=O)[C@@H](NC(=O)OC)C(C)(C)C)C(C)(C)C | Site-directed PR mutant 03 | PR-L10I G48V L90M | HeLa | β-galactosidase | 1.7
Cc1cn([C@H]2C[C@H](N=[N+]=[N-])[C@@H](CO)O2)c(=O)[nH]c1=O | 4XAZT+Y181C (RT D67N K70R Y181C T215Y K219Q) | RT-D67N K70R Y181C T215Y K219Q | CEM + CEM-SS | cytopathic effect / XTT | 40
O=S(=O)(c1ccccc1)c1ccccc1 | UC040-R (RT-Y181C) | RT-Y181C | CEM + CEM-SS | cytopathic effect / XTT | >16.3
CC(C)Nc1cccnc1N1CCN(C(=O)c2cc3cc(NS(C)(=O)=O)ccc3[nH]2)CC1 | BaL | RT-P236L | Macrophage + Monocytes/macrophages | p24 | 370
CC(C)c1nc(CN(C)C(=O)N[C@H](C(=O)N[C@@H](Cc2ccccc2)C[C@H](O)[C@H](Cc2ccccc2)NC(=O)OCc2cncs2)C(C)C)cs1 | Clinical isolate | PR-L10I K14R R41K M46L I54V L63P A71V V82A L90M I93L | PBMC | p24 | >23
Nc1nc(=O)n([C@@H]2CO[C@H](CO)S2)cc1F | HXB2D (RT-M184V) | RT-M184V | CBMC | RT activity | 2.14
CCc1cc(NCc2nc3c(Cl)ccc(Cl)c3o2)c(=O)[nH]c1C | NL4-3 | RT-V179D | MT-4 | p24 | 4
Cc1c(O)cccc1C(=O)N[C@@H](CSc1ccccc1)[C@H](O)CN1C[C@H]2CCCC[C@H]2C[C@H]1C(=O)NC(C)(C)C | Clinical isolate | PR-L10I K14R R41K M46L I54V L63P A71V V82A L90M I93L | PBMC | p24 | >43.5
CCN1c2ncc(CCOc3ccc(C(=O)O)c4c3CCCC4)cc2C(=O)N(C)c2cccnc21 | - | RT-V106A | C8166 | p24 | 1–10
Cc1cn([C@H]2C[C@H](N=[N+]=[N-])[C@@H](CO)O2)c(=O)[nH]c1=O | - | IN-T66I S153Y N155S | - | - | 1

3 of the rows above, restated:

structure	strain or isolate	changes	cell line	read by	result
Nc1nc(=O)n([C@@H]2CO[C@H](CO)S2)cc1F	HXB2D (RT-M184V)	RT-M184V	CBMC	RT activity	2.14
Cc1ccnc2c1NC(=O)c1cccnc1N2C1CC1	RF	RT-V106I Y188C	C8166	p24	>3330
CCN1c2ncc(CCOc3ccc(CCC(=O)NN)c4ccccc34)cc2C(=O)N(C)c2cccnc21	-	RT-K103N Y181C	C8166	p24	1–10

Neighbouring rows are from separate reports. Two numbers with a dash give a range or band. Blank or dashed fields: not listed here.